This note sets out measurements from PubChem BioAssay AID602156 (GNF / Scripps Winzeler lab, 2011).

The subject of the experiment is P. yoelii liver stage in HepG2-A16-CD81EGFP, imaging. Nature of the experiment: exo-erythrocytic parasite development inhibition – imaging, Malaria Box, P. yoelii, HepG2-A16-CD81EGFP, dose response (AID 602156).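 Also: infected cells exposed to compound for 48 hours before fixation.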

In general, IC50 refers to the point on the concentration scale where inhibition reaches its midpoint. As for `CCCN(CCC)[P+](CC)(N(CCC)CCC)N(CCC)CCC`, the IC50 was 260 nM.
